Pooled drug test results. Numbers come from NIAID ChemDB, via PubChem.

All rows: tests in culture; organism: HIV-1; read by: luciferase; read-out: EC50

Conditions beyond the fields shown may differ between rows. ECn: concentration that inhibits the pathogen or its effect by n%. An empty or dashed field is not shown.

SMILES,cell line,strain,changes,result
Cc1cc(S(N)(=O)=O)ccc1NC(=O)COc1ccc(Cl)cc1C(=O)c1cc(F)cc(C(F)(F)F)c1,HELA MAGI,IIIB,RT-Y188C,0.0004 µM
C[C@@H]1CN(C(=O)c2ccccc2)CCN1C(=O)C(=O)c1c[nH]c2c(F)ccc(F)c12,HeLa + HELA CD4+/CCR5,-,-,<10 µM
COc1ncc(OC)c2c(C(=O)C(=O)N3CCC(=C(c4ccccc4)c4cccc(SC)c4)CC3)c[nH]c12,HeLa,-,-,<1 µM
COc1ccc(N(C)C(=O)[C@H](Cc2ccccc2)NS(=O)(=O)CCCS(=O)(=O)N[C@@H](Cc2ccccc2)C(=O)N(C)c2ccc(OC)cc2)cc1,MT-2,NL4-3,-,1.4 µM
C[C@@H]1CN(C(=O)c2ccccc2)CCN1C(=O)C(=O)c1c[nH]c2cc(Cl)c(Cl)cc12,HeLa + HELA CD4+/CCR5,-,-,<10 µM
COc1ncc(OC)c2c(C(=O)C(=O)N3CCC(=C(c4ccccc4)c4nnco4)CC3)c[nH]c12,HeLa,-,-,<1 µM
CC#CCN(C(=O)[C@H](Cc1cc(F)cc(F)c1)NC(=O)c1cc(F)c(F)cc1C(=O)N[C@@H](Cc1cc(F)cc(F)c1)C(=O)N(CC#CC)c1ccc(OC)cc1)c1ccc(OC)cc1,MT-2,NL4-3,-,6.83 µM
O=C(C(=O)N1CCN(C(=O)c2cc3ccccc3[nH]2)CC1)c1c[nH]c2cccc(Cl)c12,HeLa + HELA CD4+/CCR5,-,-,<10 µM
COc1cnc(-n2cnc(C)n2)c2[nH]cc(C(=O)C(=O)N3CCC(=C(c4ccccc4)c4nnc(C)o4)CC3)c12,HeLa,-,-,<1 µM
C=CCN(C(=O)[C@H](Cc1cc(F)cc(F)c1)NS(=O)(=O)c1cccc(S(=O)(=O)N[C@@H](Cc2cc(F)cc(F)c2)C(=O)N(CC=C)c2ccc(OC)cc2)c1)c1ccc(OC)cc1,MT-2,NL4-3,-,3.78 µM
COc1cnc(-n2cncn2)c2[nH]cc(C(=O)C(=O)N3CCC(=C(Br)c4ccccc4)CC3)c12,HeLa,-,-,<1 µM
C=CCN(C(=O)[C@H](Cc1cc(F)cc(F)c1)NC(=O)NS(=O)(=O)N[C@@H](Cc1cc(F)cc(F)c1)C(=O)N(CC=C)c1ccc2nccnc2c1)c1ccc2nccnc2c1,MT-2,NL4-3,-,8.21 µM
CC1CN(C(=O)c2ccccc2)CC(C)N1C(=O)C(=O)c1c[nH]c2cccc(F)c12,HeLa + HELA CD4+/CCR5,-,-,<10 µM
CN(C(=O)[C@H](Cc1cc(F)cc(F)c1)NC(=O)NS(=O)(=O)N[C@@H](Cc1cc(F)cc(F)c1)C(=O)N(C)c1ccc(OC(F)(F)F)cc1)c1ccc(OC(F)(F)F)cc1,MT-2,NL4-3,-,0.01 µM
C[C@H]1CN(C(=O)c2ccccc2)CCN1C(=O)C(=O)c1c[nH]c2c(F)c(F)c(F)c(F)c12,HeLa + HELA CD4+/CCR5,-,-,<10 µM
COc1ncc(OC)c2c(C(=O)C(=O)N3CCC(=C(C#CC(=O)O)c4ccccc4)CC3)c[nH]c12,HeLa,-,-,<1 µM
CN(C(=O)[C@H](Cc1ccccc1)Nc1nccc(-c2ccnc(N[C@@H](Cc3ccccc3)C(=O)N(C)c3ccc4scnc4c3)n2)n1)c1ccc2scnc2c1,MT-2,NL4-3,-,0.09 µM
Cc1ccc(S)c(C(=O)N2CCN(C(=O)C(=O)c3c[nH]c4cccc(F)c34)CC2)c1,HeLa + HELA CD4+/CCR5,-,-,<10 µM

A second listing of 2 rows from above:

SMILES | cell line | strain | changes | result
C=CCN(C(=O)[C@H](Cc1cc(F)cc(F)c1)NS(=O)(=O)c1cccc(S(=O)(=O)N[C@@H](Cc2cc(F)cc(F)c2)C(=O)N(CC=C)c2ccc(OC)cc2)c1)c1ccc(OC)cc1 | MT-2 | NL4-3 | - | 3.78 µM
COc1cnc(-n2cnc(C)n2)c2[nH]cc(C(=O)C(=O)N3CCC(=C(c4ccccc4)c4nnc(C)o4)CC3)c12 | HeLa | - | - | <1 µM